According to PMC10076671, “Spider venom-derived peptide JZTX-14 prevents migration and invasion of breast cancer cells via inhibition of sodium channels” (Frontiers in Pharmacology, 2023):
Where a SMILES comes first, the peptide text is derived from it. Bridges are numbered along the chain shown (N, C = ends).

System: MDA-MB-231 cells
Assay: RNA sequencing, differentially expressed genes
Type: cell-based, human
Conditions: 12.5 μM, 48 h vs untreated; |log2 fold change| > 0.585 and p < 0.05; n = 3 samples per group
Protocol: Total RNA was extracted from untreated (C) MDA-MB-231 cells and MDA-MB-231 cells treated with a concentration of 12.5 μM JZTX-14 (GL) for 48 h using TRIzol reagent. RNA concentration was first quantified using a NanoDrop 2000 spectrophotometer and further accurately quantified using an Agilent 2100/4200 for RNA sample mass and concentration. The extracted total RNA was stored at −70°C. The sample mRNA was enriched with magnetic beads with Oligo (dT), and then the mRNA was broken into short fragments which subsequently used as a template to synthesize the first strand of cDNA with six-base random primers. The second cDNA strand was synthesized by adding buffer, dNTPs, and enzymes, and the acquired double-stranded cDNA was purified, end-repaired, A-tailed, and connected to sequencing junctions. Next, the fragment size was selected and the cDNA library was enriched by PCR amplification, followed by accurate qualification of the effective concentration of the library using qPCR. After library quality control, PE150 sequencing was performed using Illumina Novaseq6000 platform (BerryGenomics, Beijing, China).
The reads after rRNA removal were compared with the reference genome using Hisat2 software. Gene level quantification was performed separately for each sample using FeatureCount and combined to obtain the gene expression matrix of all samples. Correlation coefficients between samples were calculated based on the expression values (FPKM) of genes in each sample. Differential expression significance analysis was performed using edgeR with |log2(Fold Change)|> 0.585 and p-value < 0.05 as parameters to obtain the list of different genes for different comparative combinations.

## CC[C@H](C)[C@H](NC(=O)[C@@H]1CSSC[C@@H]2NC(=O)[C@@H]3CCCN3C(=O)[C@@H]3CCCN3C(=O)[C@H](CCC(N)=O)NC(=O)CNC(=O)[C@@H]3CCCN3C(=O)[C@H](Cc3c[nH]cn3)NC(=O)[C@@H]3CSSC[C@H](NC(=O)[C@H](C)NC(=O)[C@H](CC(C)C)NC(=O)CNC(=O)[C@H](CO)NC(=O)[C@H](CSSC[C@H](NC(=O)CN)C(=O)N[C@@H](CCC(N)=O)C(=O)N[C@@H](CCCCN)C(=O)N[C@@H](Cc4ccccc4)C(=O)N[C@@H](Cc4ccccc4)C(=O)N[C@@H](Cc4c[nH]c5ccccc45)C(=O)N[C@@H]([C@@H](C)O)C(=O)N3)NC2=O)C(=O)N[C@@H]([C@@H](C)O)C(=O)N[C@@H](Cc2c[nH]c3ccccc23)C(=O)N2CCC[C@H]2C(=O)N[C@@H]([C@@H](C)O)C(=O)N[C@@H](CCC(=O)O)C(=O)N[C@@H]([C@@H](C)CC)C(=O)N1)C(=O)N[C@@H](CC(C)C)C(N)=O [JZTX-14] (H-GCQKFFWTCHPGQPPCCSGLACTWPTEICIL-NH2; disulfide 2-17, 9-22, 16-29)
  Number of differentially expressed genes: 338
  Number of downregulated genes: 154
  Number of upregulated genes: 184
